{"source": "paper PMC5390082", "about": "(Scientific Reports, 2015)", "binders": {"B1": {"name": "Mycobacterium tuberculosis protein tyrosine phosphatase PtpA D126A (enzyme)", "chain": "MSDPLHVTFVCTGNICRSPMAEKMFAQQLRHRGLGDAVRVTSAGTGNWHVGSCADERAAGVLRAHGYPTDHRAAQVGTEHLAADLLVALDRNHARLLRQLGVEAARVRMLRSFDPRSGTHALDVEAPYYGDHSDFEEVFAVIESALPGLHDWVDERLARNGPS"}}, "biological_target": "T1, Trifunctional enzyme (TFP), ECHA/ECHB, immunopurified from human macrophage extract (human (endogenous in THP-1), UniProt P40939 37-763; P55084 34-474)", "T1 construct": "also called immunopurified human TFP", "test": "SPR"}
{"binder": "B1", "values": [{"measurement": "binding result", "value": "binds"}]}
